The entries are a selection whose mix differs from that of the whole data set. Potency and affinity values are given separately. Activity calls are given as the source filed them.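 The calls were made as follows: active = primary inhibition above the hit cutoff, then over 50% inhibition at one or more dose response concentrations (cut at about 23% in these data, passing the limit was not always enough); inconclusive = conflicting primary data, or primary hits not chosen for dose response; inactive = low primary inhibition, or under 50% at every dose.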
Molecular target: Aminopeptidase N (Plasmodium falciparum (isolate 3D7)) (UniProt O96935)
Assay: malaria alanyl aminopeptidase activity blockers – biochemical, fluorogenic H-Leu-NHMec substrate, 1536-well (AID 1445);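 also: plate controls were DMSO full reaction for no effect and no enzyme background for full effect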
Conditions: recombinant M1AAP, H-Leu-NHMec fluorogenic kinetic assay; at 30 µM; active compounds read high

The chains behind the UniProt entries cited, without tags or fusion partners.
UniProt O96935, whole entry: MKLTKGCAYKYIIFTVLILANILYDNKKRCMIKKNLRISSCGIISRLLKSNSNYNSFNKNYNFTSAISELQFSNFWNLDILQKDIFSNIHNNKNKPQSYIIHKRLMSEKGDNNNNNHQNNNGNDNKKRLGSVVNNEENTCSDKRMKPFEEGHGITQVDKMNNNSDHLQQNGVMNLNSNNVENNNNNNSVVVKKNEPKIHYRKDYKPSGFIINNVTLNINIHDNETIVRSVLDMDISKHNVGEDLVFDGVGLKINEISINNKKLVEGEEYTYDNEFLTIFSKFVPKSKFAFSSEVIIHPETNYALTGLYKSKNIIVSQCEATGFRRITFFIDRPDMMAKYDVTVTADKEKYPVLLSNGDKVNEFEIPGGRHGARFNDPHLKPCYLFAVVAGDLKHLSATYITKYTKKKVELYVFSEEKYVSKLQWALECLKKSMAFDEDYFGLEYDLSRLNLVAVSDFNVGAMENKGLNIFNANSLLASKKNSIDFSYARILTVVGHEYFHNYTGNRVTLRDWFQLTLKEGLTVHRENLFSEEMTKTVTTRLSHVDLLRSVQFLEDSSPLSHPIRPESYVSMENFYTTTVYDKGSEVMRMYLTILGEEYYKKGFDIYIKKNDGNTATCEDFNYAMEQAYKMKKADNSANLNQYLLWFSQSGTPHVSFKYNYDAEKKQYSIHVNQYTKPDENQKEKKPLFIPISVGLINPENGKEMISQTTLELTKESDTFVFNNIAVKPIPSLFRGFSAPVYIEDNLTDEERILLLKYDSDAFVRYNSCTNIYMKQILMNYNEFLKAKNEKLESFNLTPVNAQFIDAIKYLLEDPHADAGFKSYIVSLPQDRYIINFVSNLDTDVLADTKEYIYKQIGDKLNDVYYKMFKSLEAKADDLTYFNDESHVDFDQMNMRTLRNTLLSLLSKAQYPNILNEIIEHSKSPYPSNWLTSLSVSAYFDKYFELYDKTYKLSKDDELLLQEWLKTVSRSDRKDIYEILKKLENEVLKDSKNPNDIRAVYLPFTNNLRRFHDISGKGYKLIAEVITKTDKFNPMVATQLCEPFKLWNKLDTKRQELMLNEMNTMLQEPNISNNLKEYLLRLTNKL

| SMILES | inhibition |
| --- | --- |
| NC(=O)Nc1ccc([As](=O)(O)O)cc1 | inactive: -1.6% |

Source: PubChem BioAssay AID1445 (SRMLSC, 2008)
